This note sets out measurements from patent publication US20220213176A1 (SHANGHAITECH UNIVERSITY, published 2022).

In experiment [1] the target is T1, B.1.1.7 spike (SARS-CoV-2).
T1 construct: also called spike of U.K. variant; authentic SARS-CoV-2 UK variant (B.1.1.7) virus
The experiment in a line: […] NC (secondary only) MFI […] [cont'd) j].

The target in experiment [2] is T1, B.1.1.7 spike. The experiment in a line: cell-based or functional assay.

B1: S-B8 (antibody, V domains shown)
VH: QVQLVQSGGGLIQPGGSLRLSCAASGFTVSLSHMNWVRQAPGKGLEWVSITYGDGNSDYADSVKGRFTISRDNSKNTLYLQMNSLRAEDTAVYYCAREYYYGMDVWGQGTTVTVSS
VL: DIVMTQSPDSLAVSLGERATINCKSSQSVLYSSNNKNYLAWYQQKPGQPPKLLIYWASTRESGVPDRFSGSGSGTDFTLTISSLQAEDVAVYYCQQYYSLPLTFGGGTKLEIKR
notes: also called S-B8 dimer
On to B1, for which the MFI in the experiment with B.1.1.7 spike [1] was found to be 725000.

B2: S-D4 (antibody, V domains shown)
VH: QVQLQESGGGVVQPGRSLRLSCEVSGFTFSDYGMHWVRQAPGKGLEWVAVIWSEGSTEYYADSVKGRFTISRDNSKDTLYLQMNSLRAEDTAVYYCARPGYPTSTDRSPAAAGARQYYYYGMDVWGQGTTVTVSS
VL: NFMLTQPHSVSESPGKTVTISCTRSGGSGAANYVQWYQQRPGSSPTTLIYEDSRRPPGVPDRFSGSVDTSSNSASLTISGLQTEDEADYYCQSYDSSNHVVFGGGTKLTVLG
notes: also called S-D4 dimer; S-D4 IgG4
As to B2, the “NT50, authentic B.1.1.7 virus neutralization” value with B.1.1.7 spike [2] stood at 1.88 nM.

B3: S-E6 (antibody, V domains shown)
VH: QVTLRESGPGLVKPSETLSLTCAVSGGSLSSVNYYWSWIRQHPGKGLEWIGYIYYSGSTNYNPSLKSRVTMSLDTSKNQFSLKLSSVTAADTAVYYCATPGAIMGALHIWGQGTLVTVSS
VL: QAVLTQPSSASSTPGQRVIISCSGSSSNIGSNTVSWYQQVPGAAPKLLIYFDYRRPSGVPDRFSGTRSGTSASLGISGLQSEDEADYYCAAWDDSLSAWVFGRGTKLTVLG
notes: also called S-E6 dimer; dimer S-E6
With B3, in the experiment with B.1.1.7 spike [2], the “NT50, authentic B.1.1.7 virus neutralization” value turned out to be 1.15 nM.
